The subject of the test is X. fastidiosa subsp. fastidiosa IVIA 5387.2.

The record followed here is PMC12366332 (Applied and Environmental Microbiology, 2025).

Structures are written as SMILES.

As to `CC[C@H](C)[C@H](NC(=O)CNC(=O)[C@H](C)NC(=O)[C@@H]1CCCN1C(=O)CNC(=O)[C@H](C)NC(=O)[C@H](CC(C)C)NC(=O)[C@H](Cc1ccc(O)cc1)NC(=O)[C@H](CCCCN)NC(=O)[C@H](CC(C)C)NC(=O)[C@@H](NC(=O)[C@H](CCCCN)NC(=O)[C@H](CCCCN)NC(=O)[C@H](Cc1ccccc1)NC(=O)[C@H](CC(C)C)NC(=O)[C@H](CCCCN)NC(=O)[C@@H](N)CCCCN)[C@@H](C)CC)C(=O)NCC(=O)N[C@@H](CCCCN)C(=O)N[C@@H](Cc1ccccc1)C(=O)N[C@@H](CC(C)C)C(=O)N[C@@H](Cc1c[nH]cn1)C(=O)N[C@@H](CO)C(=O)N[C@@H](C)C(=O)N[C@@H](CCCCN)C(=O)N[C@@H](CCCCN)C(=O)N[C@@H](CC(=O)O)C(=O)N[C@@H](CCC(=O)O)C(=O)N[C@@H](CC(C)C)C(=O)O` [BP178], the “Bactericidal activity Level” value was “Very High (key: Very High: very high bactericidal activity (>2.5 log); High: high bactericidal activity (between 2.0 and 2.5 log); Moderate: a moderate activity (between 1.5 and 2.0 log); Low: low active (<1.5 log))”. In addition, for the setting “12.5 µM”, the “Bactericidal activity Reduction in viability (Log N0/N)” value is reported as “high activity”.
